Publication PMC5352689
For some assays here: For at least one entry, the source does not settle the construct or the ends of the probe. For some assays here: Where a protein sequence is shown, tags need not be part of it.

Sequences of proteins named here, by UniProt entry; tags and fusion partners are left off. Residues count along the entry.
UniProt P0ACK0, 2-210: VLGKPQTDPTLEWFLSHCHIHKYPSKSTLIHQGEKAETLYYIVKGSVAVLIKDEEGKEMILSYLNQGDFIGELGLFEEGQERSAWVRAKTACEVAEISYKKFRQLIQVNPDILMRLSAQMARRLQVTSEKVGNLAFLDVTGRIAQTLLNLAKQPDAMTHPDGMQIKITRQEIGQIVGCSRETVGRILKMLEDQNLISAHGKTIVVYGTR

Experiments:
[1] = molecular target: His6-CRP (CRP-cAMP) (UniProt P0ACK0); test: DNase I footprinting; conditions: 200 uM cAMP, 20 pmol protein, 0.45 pmol DNA in 50 ul, 25-bp protection, 20 mM Tris pH 7.5, 50 mM KCl, 1 mM DTT, 10% glycerol, 20 min at room temperature, recombinant protein, residues 2-210, protein details: N-terminal His6, label: 5' 6-FAM (forward strand), probe letters rebuilt from the primers and the genome
[2] = molecular target: T1, His6-D154AFNR (UniProt P0A9E7); test: DNase I footprinting; conditions: 200 uM cAMP in buffer, 20 pmol protein, 0.45 pmol DNA in 50 ul, 70-bp protection, 20 mM Tris pH 7.5, 50 mM KCl, 1 mM DTT, 10% glycerol, 20 min at room temperature, recombinant protein, protein details: N-terminal His6, label: 5' 6-FAM (forward strand), probe letters rebuilt from the primers and the genome
T1 sequence (looked up, limits assumed): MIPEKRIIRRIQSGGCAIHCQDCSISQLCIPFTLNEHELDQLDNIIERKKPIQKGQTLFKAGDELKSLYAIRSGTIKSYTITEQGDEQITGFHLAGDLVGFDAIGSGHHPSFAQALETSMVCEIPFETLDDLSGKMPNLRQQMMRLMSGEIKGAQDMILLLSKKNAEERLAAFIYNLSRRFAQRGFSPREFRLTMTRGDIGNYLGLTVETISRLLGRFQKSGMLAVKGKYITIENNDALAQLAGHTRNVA

Sequence: TCACTTGATTGCGAGTCGCGAGTTTTCATTGTTATCCCTCTGAAGTTCGTTTTTTACCATTTAGCCATAGTAAAAACATGAATTGTTTGATTTCGCGCATATTCGCTCATAATTCGAAAGTGAAACGTGATTTCATGCGTCATTCTGAACATTTTGTAAATCTTATTTAATAATGTGTGCGGCAATTCACATTTAATTTCTGAATGTTTTCTTAACATCGCGGCAACTAAAGAAACGGCAGGTTCTCCCACTGAATCAGTCTGTTAATCATAAATAAGACCACGGGCCACGGAGGCTTTCAAAGCTTCGC (double strand) [glpT footprint probe]
- binding result [1]: binds
- binding result [2]: binds
